This experiment relates to HIV-1BaL. In words: Anti-HIV-1BaL activity (reverse transcriptase activity) in GHOST CCR5 cells. Conditions: read-out: Inhibition of HIV-1BaL EC50, RT activity, triplicate.

Some results are limits rather than exact numbers.

As to `CNC(=O)COCC(=O)NCCCCCCCNC(=O)COCC(=O)N[C@@H]1CC[C@@]2(O)[C@H]3Cc4ccc(O)c5c4[C@@]2(CCN3CC2CC2)[C@H]1O5` (single isomer, unassigned), the EC50 is > 100 µM.

Broadly, the EC50 is the concentration needed to bring the measured effect to its halfway point.
